This note sets out measurements from ChEMBL document CHEMBL1123150, “Synthetic and conformational studies on anatoxin-a: a potent acetylcholine agonist” (1985).

The subject of this assay is frog. The experiment in a line: Agonist efficacy was evaluated as concentration that produces 10-m V depolarization in frog sartorius muscle; activity value ranges from 0.2-0.4. As to conditions: Muscle tissue.

For the molecule `CC(=O)C1=CCCC2CCC1N2` (stereo unspecified), the Concentration was found to be 0.4 µM.
